The values that follow come from PubChem BioAssay AID449728 (The Scripps Research Institute Molecular Screening Center, 2010).

The inhibition is the change of the read-out against control, counted positive when it falls.

The structures appear in SMILES notation. This is a selection; strong and weak results do not stand in their true shares. Some salts or complexes appear as unconnected parts, following the source record. Active and inactive are the calls of the source.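 The calls were made as follows: active = inhibition above the campaign's mean inhibition across all tested compounds plus 3 SD (cut at about 9.9% in these data); inactive = the rest.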

The nature of the test: E. coli V3065 growth inhibition, primary screen, counter-screen for AddAB inhibitor project, absorbance, OD600 (AID 449728).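 Also: uninfected addAB+ strain grown without phage in ampicillin broth; 0% = DMSO wells and 100% = ciprofloxacin 0.95 µg/ml wells.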 As to conditions: 18 h, at 11.9 µM, stronger effect = higher value. In general terms: A counterscreen serves to expose hits that act by an unwanted route or on another target.
As to `CC1=C2N=C(C=C3N=C(C(C)=C4[N-][C@@](C)([C@@H]5N=C1[C@](C)(CCC(=O)NC[C@@H](C)OP(=O)([O-])O[C@H]1[C@@H](O)[C@@H](n6cnc7cc(C)c(C)cc76)O[C@@H]1CO)[C@H]5CC(N)=O)[C@@](C)(CC(N)=O)[C@@H]4CCC(N)=O)[C@@](C)(CC(N)=O)[C@@H]3CCC(N)=O)C(C)(C)[C@@H]2CCC(N)=O.[C-]#N.[Co+3]`, the inhibition was inactive: 1.13%.

As to `O=[N+]([O-])c1cc([N+](=O)[O-])c(Nc2nnnn2CCO)c([N+](=O)[O-])c1`, the inhibition is inactive: 0.9%.

Consider `CCOC(=O)C(CC)C1=NC(C)(C)Cc2ccccc21.O=[N+]([O-])c1cc([N+](=O)[O-])c(O)c([N+](=O)[O-])c1` (stereo not drawn), for which the inhibition is inactive: -2.55%.

For the compound `COc1ccccc1OP(C)(=O)Nc1c(C)cccc1C` (stereo not drawn), the inhibition was inactive: 0.64%.

`CN1CCCCC1COC(=O)C1(O)c2ccccc2CCc2ccccc21` (stereo not drawn): the inhibition is inactive: 2.5%.

Turning to `CCCOc1ccc(NP(C)(=O)Oc2ccc(Cl)cc2)cc1` (stereo not drawn), the inhibition was inactive: 1.74%.

In the case of `CP(=O)(Nc1ccc(SC(F)(F)F)cc1)Oc1ccccc1` (stereo not drawn), the inhibition was inactive: -0.09%.

`O=[N+]([O-])c1cc([N+](=O)[O-])c(-n2nnc3ccccc32)c([N+](=O)[O-])c1`: the inhibition was inactive: -1.37%.

Turning to `O=[N+]([O-])c1cc([N+](=O)[O-])c(-c2cnn(-c3ccccc3)c2)c([N+](=O)[O-])c1`, the inhibition is inactive: -1.66%.

Take `Cc1nc2ccc3ccccc3c2s1.O=[N+]([O-])c1cc([N+](=O)[O-])c(O)c([N+](=O)[O-])c1`: the inhibition was inactive: 2.8%.

As to `COc1ccccc1OP(C)(=O)Nc1cccc(Br)c1` (stereo not drawn), the inhibition is inactive: 0.93%.

In the case of `CCOC(=O)c1ccc(NP(C)(=O)Oc2cc(C)cc(C)c2)cc1` (stereo not drawn), the inhibition was inactive: -3.7%.

For the compound `Cc1cc(C)cc(OP(C)(=O)Nc2ccc(C)cc2C)c1` (stereo not drawn), the inhibition is inactive: -4.62%.

As to `Cc1ccc(C)c(NP(C)(=O)Oc2ccccc2)c1` (stereo not drawn), the inhibition is inactive: -1.95%.

Turning to `Cc1cc(C)cc(OP(C)(=O)Nc2ccccn2)c1` (stereo not drawn), the inhibition was inactive: -2.68%.

For `CP(=O)(Nc1cccc(Br)c1)Oc1ccccc1` (stereo not drawn), the inhibition is inactive: 2.21%.

On to `O=C(O)c1cccc(Nc2c([N+](=O)[O-])cc([N+](=O)[O-])cc2[N+](=O)[O-])c1`, for which the inhibition was inactive: 1.1%.

As for `CC1=NCCc2c1[nH]c1ccccc21.O=[N+]([O-])c1cc([N+](=O)[O-])c(O)c([N+](=O)[O-])c1`, the inhibition was inactive: 3.24%.

For `O=[N+]([O-])c1cc([N+](=O)[O-])c(Nc2cccnc2)c([N+](=O)[O-])c1`, the inhibition is inactive: -2.15%.

On to `O=[N+]([O-])c1ccc2c(c1)C=Nc1ccccc1O2`, for which the inhibition is inactive: 1.4%.

As to `CC(C)(C)c1ccc(OP(C)(=O)Nc2ccc(SC(F)(F)F)cc2)cc1` (stereo not drawn), the inhibition was inactive: 1.38%.

Consider `Cc1cccc(C)c1OP(C)(N)=O` (stereo not drawn), for which the inhibition is inactive: -2.2%.

For the compound `COc1ccccc1OP(C)(=O)Nc1ccc(C)cc1` (stereo not drawn), the inhibition was inactive: 0.92%.

In the case of `Cc1ccc(NP(C)(=O)Oc2ccccc2)c(C)c1` (stereo not drawn), the inhibition is inactive: -1.21%.

`CCOC(=O)c1ccc(NP(C)(=O)Oc2ccccc2)cc1` (stereo not drawn): the inhibition is inactive: 1.65%.

For the compound `Cc1cc(C)cc(OP(C)(N)=O)c1` (stereo not drawn), the inhibition was inactive: -0.5%.

Take `COc1ccccc1OP(C)(=O)Nc1cc(Cl)ccc1C` (stereo not drawn): the inhibition was inactive: -1.1%.

For the compound `COc1ccc(OP(C)(=O)Nc2cccc(F)c2)cc1` (stereo not drawn), the inhibition was inactive: -1.26%.

As for `CCN(CC)CCCOC(=O)C(O)(c1ccccc1)c1ccccc1`, the inhibition was inactive: 1.61%.

Regarding `Cc1cccc(C)c1OP(C)(=O)Nc1ccc(SC(F)(F)F)cc1` (stereo not drawn), the inhibition is inactive: 1.04%.

As for `CP(=O)(Nc1ccc(SC(F)(F)F)cc1)Oc1ccc(Cl)cc1` (stereo not drawn), the inhibition is inactive: 1.07%.

For the compound `CP(=O)(Oc1ccccc1)OC(c1ccccc1)C(F)(F)F` (stereo not drawn), the inhibition was inactive: -0.17%.

As for `CP(=O)(NC(=O)Nc1ccccc1)Oc1ccccc1` (stereo not drawn), the inhibition is inactive: 2.54%.

Take `CCc1ccc(OP(C)(=O)N2CCN(c3ccc([N+](=O)[O-])cc3)CC2)cc1` (stereo not drawn): the inhibition is inactive: 1.62%.

On to `Cc1cc(C)cc(OP(C)(=O)Nc2ccc(SC(F)(F)F)cc2)c1` (stereo not drawn), for which the inhibition is inactive: -0.26%.

Regarding `CCOC(=O)c1ccc(NP(C)(=O)Oc2ccc(OC)cc2)cc1` (stereo not drawn), the inhibition is inactive: 1.65%.

Regarding `O=[N+]([O-])c1cc([N+](=O)[O-])c(O)c([N+](=O)[O-])c1.c1ccc(Oc2ccncc2)cc1`, the inhibition is inactive: -0.58%.

On to `CCOP(C)(=S)SCC(=O)NC(C)C(=O)O` (stereo not drawn), for which the inhibition was inactive: -2.38%.

Turning to `CP(=O)(Nc1ccccn1)Oc1ccc(Cl)cc1` (stereo not drawn), the inhibition was inactive: 2.04%.

On to `CP(=S)(Nn1cnnc1)Oc1ccccc1` (stereo not drawn), for which the inhibition was inactive: 0.36%.

With `CP(=O)(Nc1ccccc1Br)Oc1ccccc1` (stereo not drawn), the inhibition is inactive: -1.38%.

For the compound `COc1ccccc1OP(C)(=O)Nc1ccccc1` (stereo not drawn), the inhibition is inactive: 1.87%.

In the case of `Nc1ccc2c(ccc3cccnc32)n1.O=[N+]([O-])c1cc([N+](=O)[O-])c(O)c([N+](=O)[O-])c1`, the inhibition is inactive: 2.01%.

For `CCOC(=O)c1ccc(NP(C)(=O)Oc2ccc(Cl)cc2)cc1` (stereo not drawn), the inhibition was inactive: 0.26%.

For the compound `CP(=O)(OC12CC3CC(CC(C3)C1)C2)OC12CC3CC(CC(C3)C1)C2`, the inhibition is inactive: 1.98%.

With `CCN(CC)CC(O)COC(=O)C(O)(c1ccccc1)C1CCCCC1` (stereo not drawn), the inhibition was inactive: -1.09%.

With `COc1ccc(OP(C)(=O)Nc2ccc(Br)cc2)cc1` (stereo not drawn), the inhibition is inactive: 0.17%.

In the case of `COc1ccccc1OP(C)(=O)Nc1c(C)n(C)n(-c2ccccc2)c1=O` (stereo not drawn), the inhibition is inactive: -1.01%.

For `O=C(OCCCN1CCCC1)C(O)(c1ccccc1)C1CCCCC1` (stereo not drawn), the inhibition was inactive: -2.16%.

In the case of `CP(=O)(Oc1ccccc1)N1CCOC1=O` (stereo not drawn), the inhibition is inactive: -0.18%.

`CCc1ccc(OP(C)(=O)Nc2cccnc2)cc1` (stereo not drawn): the inhibition is inactive: 1.02%.

In the case of `COc1ccccc1OP(C)(=O)Nc1ccccc1Br` (stereo not drawn), the inhibition is inactive: -1.16%.

For `CC(C)(C)c1ccc(OP(C)(=O)O)cc1`, the inhibition is inactive: -0.5%.

Take `CP(=O)(Nc1ccc(Cl)cc1)Oc1ccc(F)cc1` (stereo not drawn): the inhibition is inactive: 2.56%.

On to `CN(C)C(=O)c1c([N+](=O)[O-])cc([N+](=O)[O-])cc1[N+](=O)[O-]`, for which the inhibition was inactive: -0.59%.

Regarding `COc1ccccc1OP(C)(=O)Nc1ccc(Br)cc1` (stereo not drawn), the inhibition is inactive: -1.11%.

`COc1ccc(OP(C)(=O)Nc2ccccn2)cc1` (stereo not drawn): the inhibition was inactive: -2.85%.

As for `CN(C)CCOC(=O)C(O)(c1ccccc1)C1CCCC1` (stereo not drawn), the inhibition was inactive: 3.03%.

On to `Cc1c(NP(C)(=O)Oc2ccc(C(C)C)cc2)c(=O)n(-c2ccccc2)n1C` (stereo not drawn), for which the inhibition was inactive: 0.72%.

`O=[N+]([O-])c1cc([N+](=O)[O-])c(Nc2ccccn2)c([N+](=O)[O-])c1`: the inhibition is inactive: 0.67%.

For the compound `CP(=O)(Nc1ccccn1)Oc1ccccc1` (stereo not drawn), the inhibition is inactive: -0.59%.

As for `COc1ccccc1OP(C)(=O)Nc1ccc(C)cc1C` (stereo not drawn), the inhibition is inactive: 2.44%.

As to `CCc1ccc(OP(C)(=O)O)cc1`, the inhibition was inactive: 1.4%.

Turning to `Cc1cc(C)cc(OP(C)(=O)Nc2cccc(C(F)(F)F)c2)c1` (stereo not drawn), the inhibition was inactive: -2.01%.

As for `COc1ccccc1OP(C)(=O)Nc1ccc(C)c(C)c1` (stereo not drawn), the inhibition was inactive: 0.84%.

`COc1ccc(OP(C)(=O)Nc2ccccc2Br)cc1` (stereo not drawn): the inhibition was inactive: 0.61%.

As to `Cc1nc2ccc3ccccc3c2o1.O=[N+]([O-])c1cc([N+](=O)[O-])c(O)c([N+](=O)[O-])c1`, the inhibition is inactive: -4.1%.

`CP(=O)(Nc1ccc(Cl)cc1Cl)Oc1ccccc1` (stereo not drawn): the inhibition is inactive: -3.31%.

Regarding `CP(=O)(OCCOc1ccccc1)OCCOc1ccccc1`, the inhibition is inactive: -0.68%.

With `CCOC(=O)c1ccc(NP(C)(=O)Oc2ccc(F)cc2)cc1` (stereo not drawn), the inhibition is inactive: -0.43%.

For `COc1ccc(OP(C)(=O)Nc2ccc(SC(F)(F)F)cc2)cc1` (stereo not drawn), the inhibition was inactive: 1.42%.

Take `CCN(CC)CCCOC(=O)C(O)(c1ccccc1)C1CCCCC1` (stereo not drawn): the inhibition is inactive: -3.17%.

Take `CP(=O)(Nc1ccccc1)Oc1ccc(F)cc1` (stereo not drawn): the inhibition is inactive: -3.68%.

`CCCCCOc1ccc(NP(C)(=O)Oc2ccc(Cl)cc2Cl)cc1` (stereo not drawn): the inhibition was inactive: -2.16%.

As for `O=[N+]([O-])c1cc([N+](=O)[O-])c(OC2CCCCC2O)c([N+](=O)[O-])c1` (stereo not drawn), the inhibition is inactive: -3%.

For the compound `CP(=O)(Nc1ccccc1F)Oc1ccccc1` (stereo not drawn), the inhibition is inactive: 1.24%.

Turning to `CC(C)c1ccc(OP(C)(=O)Nc2ccc(SC(F)(F)F)cc2)cc1` (stereo not drawn), the inhibition was inactive: -0.35%.

Regarding `O=C(OC1CN2CCC1CC2)c1ccc([N+](=O)[O-])cc1` (stereo not drawn), the inhibition is inactive: -0.33%.

As for `O=C(OCCN1CCN(CCOCc2ccccc2)CC1)C(O)(c1ccccc1)c1ccccc1`, the inhibition was inactive: -1.47%.

As to `COc1ccc2c(c1O)-c1c(O)c(OC)cc3c1[C@H](C2)[N+](C)(C)CC3.O=[N+]([O-])c1cc([N+](=O)[O-])c([O-])c([N+](=O)[O-])c1[O-]`, the inhibition is inactive: -1.12%.

As for `CP(=O)(Nc1ccc(SC(F)(F)F)cc1)Oc1ccc(F)cc1` (stereo not drawn), the inhibition is inactive: -0.17%.

On to `CCOP(C)(=S)SCC(=O)NC(C)(CC)C(=O)O` (stereo not drawn), for which the inhibition was inactive: 1.82%.

For the compound `CP(=O)(Nc1ccc2c(c1)OCCO2)Oc1ccccc1` (stereo not drawn), the inhibition was inactive: -1.92%.

Consider `Cc1ccccc1NP(C)(=O)Nc1ccccc1C`, for which the inhibition was inactive: 0.18%.

As for `COc1ccc(OP(C)(=O)Nc2cccc(Br)c2)cc1` (stereo not drawn), the inhibition is inactive: 0.55%.

As for `CN(C)CCOC(=O)C(O)(c1ccccc1)C1CCCCC1` (stereo not drawn), the inhibition was inactive: -3.73%.

Take `COc1ccc(NP(C)(=O)Oc2ccccc2OC)cc1` (stereo not drawn): the inhibition is inactive: 1.66%.

For `O=[N+]([O-])c1cc([N+](=O)[O-])c(NCC2CCS(=O)(=O)C2)c([N+](=O)[O-])c1` (stereo not drawn), the inhibition was inactive: -1.58%.
